Tests used:
Assay in all cases: SPR
Conditions in all cases: domain or fragment
[1] = biological target: S309
[2] = biological target: CR3022
[3] = biological target: P2B-2F6
[4] = biological target: CB6

Substance: RBD 1 (synthetic homogeneous RBD with sialylated biantennary N-glycans at N331 and N343, linker GGG and Tpep) (from UniProt P0DTC2 319-537)
- Kd [1]: 0.00883 µM
- Kd [2]: 0.0374 µM
- Kd [3]: 0.123 µM

Substance: RBD 4 (synthetic homogeneous RBD with asialo biantennary N-glycans at N331 and N343, without Tpep) (from UniProt P0DTC2 319-537)
- Kd [1]: 0.00593 µM
- Kd [2]: 0.0292 µM
- Kd [4]: 0.0592 µM

Substance: nonglycosylated RBD 6 (RBD 319–537 with Met at the N-terminus) (from UniProt P0DTC2 319-537)
- Kd [2]: 0.0117 µM
- Kd [4]: 0.0306 µM
- Kd [3]: 0.0505 µM

Substance: RBD 2 (synthetic homogeneous RBD with asialo biantennary N-glycans at N331 and N343, linker GGG and Tpep) (from UniProt P0DTC2 319-537)
- Kd [1]: 0.00425 µM
- Kd [3]: 0.0906 µM

Reference: PMC10852988
